# PSTVd loop 27 mutant pool in Nicotiana benthamiana

Region: loop 27 of PSTVd (intermediate strain), 5' to 3', with the closing base pair. Wild type: UUUUCA. Varied positions (N): UNNNNA.

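Three N. benthamiana plants were inoculated with the whole mutant pool. Samples came from the inoculated region at 5 days, the leaf margin at 10 and upper systemic leaves at 12.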

Numbers give reads per thousand; 0 = not seen among the reads, higher = more abundant.
Each value is the mean of three plants.
"Pool" is the share in the plasmid pool used as inoculum, on the same scale.
The inoculated region was read from the minus strand, the other sites from the plus strand.
IR is the inoculated region, LM the leaf margin, Sys the systemic leaves.
For reference, wild type rose from 39.4 per thousand in the pool to 155, 124, 130 (inoculated region), 823, 907, 920 (leaf margin) and 805, 787, 933 (systemic leaves).
With 30,013-65,426 reads a sample, very low values are single reads.
Sequences that differ at fixed positions probably stem from PCR or sequencing errors, and defective variants can be carried along by functional ones.

UUAACA (pool 0.0272) read IR 0.0693; LM 0.0884; Sys 0.0182.
UUCGCA (pool 3.06) read IR 1.68; LM 0.0940; Sys 0.0218.
UCCUAA (pool 2.57) read IR 1.49; LM 0.193; Sys 0.
UGGUGA (pool 5.75) read IR 1.75; LM 0.264; Sys 0.0877.
UUUGAA (pool 5.76) read IR 6.20; LM 1.06; Sys 0.188.
UCACGA (pool 2.53) read IR 0.624; LM 0.0510; Sys 0.0677.
UCGAUA (pool 2.92) read IR 1.58; LM 0.375; Sys 0.0308.
UGCUCA (pool 2.91) read IR 1.92; LM 0.389; Sys 0.0343.
UUACAA (pool 3.73) read IR 1.21; LM 0.227; Sys 0.0639.
UUCGGA (pool 2.27) read IR 1.74; LM 0.424; Sys 0.0626.
UCGAGA (pool 4.21) read IR 2.89; LM 0.207; Sys 0.0358.
UUCCGA (pool 0.747) read IR 0.481; LM 0; Sys 0.
UAUUGA (pool 3.46) read IR 3.51; LM 0.516; Sys 0.0870.
UACGCA (pool 2.72) read IR 1.13; LM 0.204; Sys 0.00536.
GUUGCU (pool 0.598) read IR 0.0827; LM 0.0111; Sys 0.
UAAUUA (pool 6.75) read IR 2.21; LM 0.223; Sys 0.128.
GGUUAA (pool 0.0272) read IR 0; LM 0; Sys 0.
UUUACG (pool 0.0136) read IR 0; LM 0.0111; Sys 0.
UACUAA (pool 2.43) read IR 1.08; LM 0.189; Sys 0.162.
UCAGCA (pool 1.72) read IR 0.595; LM 0.0500; Sys 0.0182.
UGCGAA (pool 1.75) read IR 1.62; LM 0.0302; Sys 0.0272.
GUUGGA (pool 0.0136) read IR 0; LM 0; Sys 0.
UUUCGA (pool 2.55) read IR 1.65; LM 0.135; Sys 0.0226.
UCAAGA (pool 2.57) read IR 0.659; LM 0.134; Sys 0.0221.
UGCUCC (pool 0.394) read IR 0.129; LM 0; Sys 0.
UCAAUA (pool 6.10) read IR 4.28; LM 0.240; Sys 0.0692.
UGGCGA (pool 3.06) read IR 1.08; LM 0.0413; Sys 0.0236.
UCUUCA (pool 0.951) read IR 1.93; LM 0.356; Sys 0.138.
UAUAGA (pool 2.13) read IR 0.808; LM 0.0611; Sys 0.0529.
UCCUAC (pool 0.136) read IR 0.00588; LM 0; Sys 0.
UGUUUA (pool 6.68) read IR 16.6; LM 1.76; Sys 0.323.
CAAGGA (pool 0.163) read IR 0.0529; LM 0; Sys 0.
UGGAUA (pool 5.60) read IR 8.45; LM 0.965; Sys 0.0790.
UAUUUA (pool 7.74) read IR 10.3; LM 0.653; Sys 0.124.
GUUAGA (pool 0.0136) read IR 0; LM 0; Sys 0.
UUUUAA (pool 5.32) read IR 12.2; LM 6.47; Sys 2.49.

The first 3 entries again:

{"sequence": "UUAACA", "pool": "0.0272", "IR": 0.0693, "LM": 0.0884, "Sys": 0.0182}
{"sequence": "UUCGCA", "pool": "3.06", "IR": 1.68, "LM": 0.0940, "Sys": 0.0218}
{"sequence": "UCCUAA", "pool": "2.57", "IR": 1.49, "LM": 0.193, "Sys": 0}

Values reported by Wu et al. 2024 (doi:10.1371/journal.ppat.1012142).